This is an account of results in the supplement of paper PMC9931576.

What all share (assay): pseudovirus neutralization IC50; higher = weaker neutralization
In test [1] the target is SARS-CoV-2 Omicron BA.1 spike pseudovirus. How it is done:
(§1)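 Single-round VSV luciferase pseudovirus mixed with antibody dilutions for 1 h and put on Huh-7 cells for about a day; IC50 from the dose curve.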

Test [2] has as its target SARS-CoV-2 Omicron BA.2 spike pseudovirus. How it is done: as §1
Test [3] addresses SARS-CoV-2 Omicron BA.2.75 spike pseudovirus. How it is done:
as §1

Test [4] concerns the target SARS-CoV-2 Omicron BA.5 spike pseudovirus. How it is done:
as §1

The target in test [5] is SARS-CoV-2 Omicron BQ.1.1 spike pseudovirus. On the procedure:
as §1

Test [6] deals with SARS-CoV-2 Omicron XBB spike pseudovirus. How it is done:
as §1

Test [7] concerns the target SARS-CoV-2 early D614G spike pseudovirus. On the procedure:
as §1

Human monoclonal antibodies against the spike receptor-binding domain (heavy:light variable regions). IC50 against pseudoviruses bearing the spike of naturally observed variants; lower = stronger; >10 µg/ml means not reached at the top dose. No active / inactive call. The stated detection limit is 0.0005 µg/ml; values near or below 0.001 µg/ml lie at the floor of the assay. Where only a bound is given, the exact number is not on record here.

B1: BD55-659 (protein)
chain 1: EVQLVESGGGLVKPGGSLRLSCAASGFTFSRYSMNWVRQAPGKGLEWVSSISSSSSYIYYADSVKGRFTISRDNAKNSLYLQMNSLRAEDTAVYYCARVASVDYYDRSGHYTTDYDYGMDVWGQGTTVTVSS
chain 2: QSVLTQPPSVSGAPGQRVTISCTGSSSNIGAGYDVHWYQQLPGTAPKLLIYGNSNRPSGVPDRFSGSKSGTSASLAITGLQAEDEADYYCQSYDSSLSGYVFGTGTKVTVL
Consider B1, for which the “pseudovirus neutralization IC50” value in test [1] was 0.589 µg/mL; in test [2], > 10 µg/mL; in test [3], > 10 µg/mL; in test [4], > 10 µg/mL; in test [5] it was > 10 µg/mL; in test [6] it was > 10 µg/mL. Also, the “pseudovirus neutralization IC50” value in test [7] is 0.0731 µg/mL.

B2: BD55-587 (protein)
chain 1: QITLKESGPTLVKPTQTLTLTCTFSGFSLNTSGVGVGWIRQPPGKALEWLALIYWDDDKRYSPSLKSRLTITKDTSKNQVVLTMTNMDPVDTATYYCARTYGSPPLIAAAEYWFDPWGQGTLVTVSS
chain 2: SYELTQPPSVSVSPGQTARITCSGDALPKQYAYWYQQKPGQAPVLVIYKDSERPSGIPERFSGSSSGTTVTLTISGVQAEDEADYYCQSGDSSGVVFGGGTKLTVL
On to B2, for which the “pseudovirus neutralization IC50” value in test [1], in test [2], in test [3], in test [4], in test [5] and in test [6] was > 10 µg/mL each time. Besides, the “pseudovirus neutralization IC50” value in test [7] is > 10 µg/mL.

B3: BD55-616 (protein)
chain 1: QVQLVQSGAEVKKPGASVKVSCKASGYSFTSYYIHWVRQAPGQGLEWMGTINPSGGSKNYAQKFQGRVTMTRDTSTTTVYMELSSLRSEDTAVYYCARGHSDILTGYYIFGGYFDYWGQGTLVTVSS
chain 2: EIVMTQSPATLSVSPGERATLSCRASQSVSSNLAWYQQKPGQAPRLLIYGASTRATGIPARFSGSGSDTEFTLTISSLQSEDFAVYYCQQYNNWPPGYTFGQGTKLEIK
Consider B3, for which the “pseudovirus neutralization IC50” value in test [1] was 0.00812 µg/mL; in test [2], 0.00979 µg/mL; in test [3], 0.00584 µg/mL; in test [4], > 10 µg/mL; in test [5], > 10 µg/mL; in test [6] it was 0.747 µg/mL. In addition, the “pseudovirus neutralization IC50” value in test [7] amounted to 0.00686 µg/mL.

B4: BD-619 (protein)
chain 1: EVQLVESGGGLIQPGGSLRLSCAASGITVSSNYMSWVRQAPGKGLEWVSVIYSGGSTFYSDSVKGRFTISRDNSKNTLYLQMNSLRAEDTAVYYCARERGGRFDYWGQGTLVTVSS
chain 2: not shown
In the case of B4, the “pseudovirus neutralization IC50” value in test [1], in test [2], in test [3], in test [4], in test [5] and in test [6] was > 10 µg/mL throughout. The “pseudovirus neutralization IC50” value in test [7] was 0.12 µg/mL.

B5: BD55-970 (protein)
chain 1: QVQLLQSGAEMKKPGSSVKISCETSGGAFSDFDINWVRLAPGQGLEWMGRIIPVLNIGNYAQRFEGRVTITADKATSTAYMELRSLESGDTALYYCAALSVGRHNFLGDYYFYQMEVWGQGTRVTVSS
chain 2: IVLTQSPGTLSLSPGERATLSCRASQSVSNRYLAWYQQKPGQAPRLLIYGANNRATGIADRFSGSGSGTDFTLTISRLEPEDFAIYYCQQYGDSPTFGGGTKVEIK
Consider B5, for which the “pseudovirus neutralization IC50” value in test [1], in test [2], in test [3], in test [4], in test [5] and in test [6] was > 10 µg/mL in each case. The “pseudovirus neutralization IC50” value in test [7] is > 10 µg/mL.

B6: BD-900 (protein)
chain 1: QVQLVQPGAEVKKPGSSVKVSCKASGGTFSNYAIAWVRQAPGQGLEWMGRIIPMFGTTSPAQNFKDRLTIGADTSTNTAYMELRSLRFEDTAIYYCARDVVGATNIDFWGQGTLVTVSS
chain 2: DVVMTQSPLSLPVTLGQPASISCRSNHSLVYSDGNTYLNWFQQRPGQSPRRLIYKVSNRDSGVPDRFSGSGSVTDFTLKISRVETEDLAIYFCMQGTHWPRTFGQGTRVEVK
On to B6, for which the “pseudovirus neutralization IC50” value in test [1], in test [2], in test [3], in test [4], in test [5] and in test [6] was > 10 µg/mL in each case. In addition, the “pseudovirus neutralization IC50” value in test [7] stood at 0.009 µg/mL.

B7: BD-864 (protein)
chain 1: QVQLVESGGGVVQPGRSLRLSCVASGFPFSKYTMHWVRQAPGKGLEWVTVISKPGGDEYYADSVKGRFSISRDNSKNMLDLQMNSLRPEDTAIYYCVREGRIAALGTAQSLWEPHDAFDVWGPGTMVTVSS
chain 2: QSALTQPRSVSGSPGQSVTISCTGTNSDIGNYNYISWYQQRPGKAPKLMIYDVSERPSGVPDRFSGSKSGNTASLTISGLQAEDESDYYCCSYAGTSLVWVFGGGTKLTVL
Consider B7, for which the “pseudovirus neutralization IC50” value in test [1] is 0.784 µg/mL; in test [2], 0.00312 µg/mL; in test [3] it was 0.111 µg/mL; in test [4], 0.0857 µg/mL; in test [5] it was > 10 µg/mL; in test [6], > 10 µg/mL. Besides, the “pseudovirus neutralization IC50” value in test [7] stood at 0.016 µg/mL.

B8: BD55-746 (protein)
chain 1: QVQLVQSGGGVVQPGRSLILSCAASEFAFSNFDMHWVRQAPGKGLEWVAVISADGSTTFYVDSVRGRFSVSRDNSKSTLSLQMNSLRPEDTAIYYCAKDAKVSYYYDVFDIWGQGTMVTVSS
chain 2: DIQMAQSPSSLSASVGDRVTITCRASQYISTYLSWYQQRPGRPPKLLIYGASTLRSGVPSRFSGSGSGTDFTLTINSLQPEDFATYFCQQSYVTPGVTFGGGTKVEIE
For B8, the “pseudovirus neutralization IC50” value in test [1] was determined as 2.39 µg/mL; in test [2], 1.1 µg/mL; in test [3] it was 1.82 µg/mL; in test [4], 0.993 µg/mL; in test [5], 2.01 µg/mL; in test [6], 3.33 µg/mL. In addition, in test [7], the “pseudovirus neutralization IC50” value was found to be 0.808 µg/mL.

B9: BD55-745 (protein)
chain 1: QVQLVQSGAEVKKPGASVKVSCKASGYTFTSYYMHWVRQAPGQGLEWMGVINPGAGSTSYAQKFQGRVTMTRDTSTSTVYMDLNSLRSEDTAVYYCARDQVGVPATDGMDVWGQGTTVTVSS
chain 2: EIVLTQSPATLSLSPGERATLSCRASQSVSSYLAWYQQKPGQAPRLLIYDASNRATGIPARFSGSGSGTDFTLTISSLEPEDFAVYYCQQRSNWQYTFGQGTKLEIK
As for B9, the “pseudovirus neutralization IC50” value in test [1], in test [2], in test [3], in test [4], in test [5] and in test [6] was > 10 µg/mL each time. Moreover, the “pseudovirus neutralization IC50” value in test [7] was > 10 µg/mL.

B10: BD55-979 (protein)
chain 1: QVQLVQSGPEVLKPGASVKLSCKLSGYSFTTYYVHWVRQAPGQGLEWMGRVNPGDGRAAYAQGFRGRLTLTADTSTSAAYMELSSLRSGDTAVYYCTRTAVTPPQTFFDYWGQGSLVTVSS
chain 2: SYVVTQPPSVSVAPGKTARITCGGDEIGSKNVHWYQQRPGQAPVLVVYDDTDRPSGIPERFSGSNSGNTATLTISRVEVGDEADYYCQVWDSPSLLFYVFGSGTKVTVL
In the case of B10, the “pseudovirus neutralization IC50” value in test [1], in test [2], in test [3], in test [4], in test [5] and in test [6] was > 10 µg/mL throughout. Besides, the “pseudovirus neutralization IC50” value in test [7] was > 10 µg/mL.

B11: BD-849 (protein)
chain 1: QVQLQESGPGLVKPSETLSLTCTVSGGSISSYYWTWVRQSPGKGLEWIGYISYTGSTNYNPSLKGRVTMSIDTSENQVSLRLSSVTAADTAVYYCASDFWSDYAGVYYYYGMDVWGQGTTVTVSS
chain 2: DIQMTQSPSSVSASVGDRVTITCRASQDIAGWLAWYQQKPGKAPKLLVYAATTLQSGVPARFSGSGSGTDFTLTISSLQPEDFATYYCQQANSFPRTFGQGTKVDFK
In the case of B11, the “pseudovirus neutralization IC50” value in test [1], in test [2], in test [3], in test [4], in test [5] and in test [6] was > 10 µg/mL each time. Moreover, the “pseudovirus neutralization IC50” value in test [7] was > 10 µg/mL.

B12: BD-904 (protein)
chain 1: QVQLVESGGGVVQPGTSLRLSCVASRFTFSNYGMHWVRQAPGKGLEWVAVIWYDGNNYDYADSVKGRFTISRDNSKNTLYLQMNSLRAEDTAVYYCAKEAAATISLMGPYGMDVWGQGTTVTVSS
chain 2: QSALTQPRSVSGSPGQSVTISCTGTSSDIGAYKSVSWYQQHPGKAPKLMIYDVTKRPSGVPDRFSGSRSGNTASLTISGLQTEDEADYYCCSYAGSYTYLFATGTKVTVL
With B12, the “pseudovirus neutralization IC50” value is 0.19 µg/mL in test [1]; 0.348 µg/mL in test [2]; 0.214 µg/mL in test [3]; 0.411 µg/mL in test [4]; > 10 µg/mL in test [5]; > 10 µg/mL in test [6]. Moreover, the “pseudovirus neutralization IC50” value in test [7] was found to be 0.002 µg/mL.

B13: BD55-696 (protein)
chain 1: QLQLQESGPGLVKPSETLSLTCTVSGSSISSSSYYWGWIRQPPGKGLEWIGSIYYSGSTYYNPSLKSRVTMSVDTSKNQFSLKLSSVTAADTAVYYCARLIRWSLGGYSDYWGQGTLVTVSS
chain 2: QSALTQPASVSGSPGQSITISCTGTSSDVGSYNLVSWYQQHPGKAPKLMIYEGSKRPSGVSYRFSGSKSGNTASLTISGLQAEDEADYYCCSYAGSSIVVFGGGTKLTVL
On to B13, for which the “pseudovirus neutralization IC50” value in test [1], in test [2], in test [3], in test [4], in test [5] and in test [6] was > 10 µg/mL in each case. The “pseudovirus neutralization IC50” value in test [7] is > 10 µg/mL.
